Measured values from several laboratories, pooled; numbers as filed in NIAID ChemDB.

Shared fields: tests on isolated targets

ICn is the concentration giving n% inhibition. Percent inhibition refers to the dose given; in toxicity tests it is the harm to the cells. Lines come from different laboratories, so protocols vary. a–b is a range or a potency band. Blank or dashed fields: not listed here.

compound | read by | target | measure | tested at | strain or isolate | agent | result
CCC[C@H](NC(=O)C1CN(C(=O)[C@@H](NC(=O)[C@@H](NC(=O)c2cnccn2)C(C)C)C(C)C)C[C@@H]1OC(=O)N1CCc2ccccc2C1)C(=O)C(=O)N1CC1C(=O)OC | - | NS3 serine protease | Ki | - | - | Hepatitis C virus | <1 µM
CCC[C@H](NC(=O)[C@@H]1C2CCCC2CN1C(=O)[C@@H](NC(=O)[C@@H](NC(=O)c1cnccn1)C1CCCCC1)C(C)(C)C)C(=O)C(=O)N[C@@H](C)c1ccncc1 | - | Nonstructural protein 3 protease | Ki | - | - | Hepatitis C virus | 0.053 µM
C[C@@]1(O)[C@H](O)[C@@H](COP(=O)(O)OP(=O)(O)OP(=O)(O)O)O[C@H]1c1ccc2c(N)ncnn12 | nucleotide incorporation | Nonstructural protein 5B | IC50 | - | GT7a | Hepatitis C virus | 0.81 µM
C=CC[C@H](NC(=O)[C@@H]1CCc2c(Cl)nc(NCc3ccc(OC)cc3)c(=O)n21)B1OC2CC3CC(C3(C)C)C2(C)O1 | - | NS3 serine protease | IC50 | - | - | Hepatitis C virus | <10 µM
CCCn1c(=O)c(C2=NS(=O)(=O)c3ccccc3N2)c(O)c2ccccc21 | - | RNA-dependent RNA polymerase | IC50 | - | - | Hepatitis C virus | 0.1 µM
O=C(O)c1sc(-c2ccccc2)cc1NS(=O)(=O)c1cccc(Br)c1 | - | NS3 ATPase | IC50 | - | - | Hepatitis C virus | 5–20 µM
CCCC(NC(=O)[C@@H]1C[C@@H]2CN1C(=O)[C@H](C1CCCCC1)NC(=O)Cc1cccc(c1)OCCCCO2)C(=O)C(=O)NCC(=O)N[C@H](C(=O)OC(C)(C)C)c1ccccc1 | - | NS3 serine protease | Ki | - | - | Hepatitis C virus | <0.1 µM
CC1=NCCN1c1cc(C(=O)Nc2ccc3[nH]ncc3c2)c(F)cc1F | - | Reverse transcriptase | IC50 | - | - | Hepatitis B virus | 0.1–1 µg/mL
CN(C)CCNc1cc(C(=O)Nc2ccc3nc[nH]c3c2)c(F)cc1F | - | NS5B polymerase | inhibition | 0.1 µg/mL | - | Hepatitis C virus | 46%
CCOc1cccc(CCC2(C3CCCC3)CC(=O)CC(=O)O2)c1 | - | Nonstructural protein 5B | IC50 | - | - | Hepatitis C virus | 1–10 µM
O=C(O)[C@H](Cc1ccccc1)N(Cc1cccc([N+](=O)[O-])c1)C(=O)c1ccc(Cl)cc1Cl | - | NS5B polymerase | IC50 | - | - | Hepatitis C virus | 0.7 µM
CC(C)(C)[C@H](NC(=O)[C@@H](NC(=O)c1cnccn1)C1CCCCC1)C(=O)N1CC2CCCC2[C@H]1C(=O)NC(CC(F)F)C(=O)C(=O)NC1CC1 | - | Nonstructural protein 3 protease | Ki | - | - | Hepatitis C virus | 0.025 µM
CC(C)N(C(=O)c1ccc(Cl)cc1Cl)c1cc(-c2ccc(F)cc2)sc1C(=O)O | - | NS3 ATPase | IC50 | - | - | Hepatitis C virus | <5 µM
O=C1/C(=C\c2ccc(Cl)c(Cl)c2)SC(=S)N1NS(=O)(=O)c1ccccc1F | - | NS3 serine protease | IC50 | - | - | Hepatitis C virus | <1 µM
COc1cc(C)c(S(=O)(=O)N(Cc2ccc(-c3cc4ccccc4o3)cc2)[C@@H](Cc2ccccc2)C(=O)O)c(C)c1C | HPLC | Nonstructural protein 3 NTPase/helicase | IC50 | - | - | Hepatitis C virus | 5–20 µM
CCC[C@H](NC(=O)C1C[C@@H](OC(=O)N2CCc3ccccc3C2)CN1C(=O)[C@@H](NC(=O)[C@@H](NC(=O)c1cnccn1)C(C)C)C(C)C)C(=O)C(=O)N1CC1C(=O)OC | - | HCV NS3 protease | Ki | - | - | Hepatitis C virus | <1 µM
O=C1CC(=O)OC(CCc2ccc(F)c(F)c2)(C2CCCC2)C1 | - | Nonstructural protein 5B | IC50 | - | - | Hepatitis C virus | 10–50 µM
CSCC[C@H](NC(=O)[C@H](CCC(=O)O)NC(=O)[C@H](CC(=O)O)NC(C)=O)C(=O)N[C@@H](CCC(=O)O)C(=O)N[C@@H](Cc1ccc2ccccc2c1)C(=O)N[C@@H](CS)C(=O)O | - | HCV NS3 protease | Ki | - | - | Hepatitis C virus | 0.4 µM
CCC[C@H](NC(=O)[C@@H]1C2CCCC2CN1C(=O)[C@@H](NC(=O)[C@@H](NC(=O)c1cnccn1)C1CCCCC1)C(C)(C)C)C(=O)C(=O)N[C@@H](C)c1ccc(C)cc1 | - | Nonstructural protein 3 protease | Ki | - | - | Hepatitis C virus | 0.136 µM
O=C1OC(CCc2ccc(O)cc2)(C2CCCC2)CC(O)=C1SCc1ccccc1 | - | Nonstructural protein 5B | IC50 | - | - | Hepatitis C virus | 1–10 µM
CN1CCN(c2cc(C(=O)Nc3ccc4cn[nH]c4c3)c(F)cc2F)CC1 | - | Reverse transcriptase | inhibition | 0.01 µg/mL | - | Hepatitis B virus | 10%
COc1ccc(-c2cc(NS(=O)(=O)c3ccc(C)cc3C)c(C(=O)O)s2)cc1 | - | NS3 ATPase | IC50 | - | - | Hepatitis C virus | <5 µM
CC[C@H](C)[C@H](NC(=O)[C@@H](NC(=O)[C@H](CCC(=O)O)NC(=O)[C@H](CC(=O)O)NC(C)=O)C(c1ccccc1)c1ccccc1)C(=O)N[C@@H](CC1CCCCC1)C(=O)N[C@@H](CS)C(=O)O | - | Full-length NS3 | IC50 | - | - | Hepatitis C virus | 0.3674 µM
Cc1cc(SC2=C(O)CC(CCc3ccc(O)cc3)(C3CCCC3)OC2=O)c(C(C)(C)C)cc1N | - | Nonstructural protein 5B | IC50 | - | - | Hepatitis C virus | <1 µM
CCC[C@H](NC(=O)[C@@H]1C2CCCC2CN1C(=O)[C@@H](NC(=O)[C@@H](NC(=O)c1cnccn1)C1CCCCC1)C(C)(C)C)C(=O)C(=O)N[C@@H](C)CC | - | Nonstructural protein 3 protease | Ki | - | - | Hepatitis C virus | 0.136 µM
Cc1cc(SC2=C(O)CC(CCc3ccc(O)cc3)(C3CCCC3)OC2=O)c(C(C)(C)C)cc1N | - | NS5B polymerase | IC50 | - | - | Hepatitis C virus | 1 µM
CC1CCC(C(=O)N(CC2CCN(C(=O)OCc3ccccc3)CC2)c2cc(-c3ccccc3)sc2C(=O)O)CC1 | - | NS3 ATPase | IC50 | - | - | Hepatitis C virus | <5 µM
O=C(Nc1ccc2cn[nH]c2c1)c1cc(N2CCC(O)CC2)c(F)cc1F | - | Reverse transcriptase | IC50 | - | - | Hepatitis B virus | >1 µg/mL
CN(C(=O)C1CCCC1)c1cc(-c2ccccc2)sc1C(=O)O | - | NS3 ATPase | IC50 | - | - | Hepatitis C virus | <5 µM
CCC[C@H](NC(=O)[C@@H]1C2CCCC2CN1C(=O)[C@@H](NC(=O)[C@@H](NC(=O)c1cnccn1)C(C)(C)C)C(C)(C)C)C(=O)C(=O)NC1CC1 | - | Nonstructural protein 3 protease | Ki | - | - | Hepatitis C virus | 0.17 µM
CC1CCC(C(=O)N(c2cc(C3CCN(C)CC3)sc2C(=O)O)C(C)C)CC1 | - | NS3 ATPase | IC50 | - | - | Hepatitis C virus | <5 µM
COCCNc1nc(Nc2ccc3[nH]ncc3c2)nc(OC)n1 | - | NS5B polymerase | inhibition | 0.1 µg/mL | - | Hepatitis C virus | 46%
CSCC[C@H](NC(=O)[C@H](CCC(=O)O)NC(=O)[C@@H](CC(=O)O)NC(C)=O)C(=O)N[C@@H](CCC(=O)O)C(=O)N[C@@H](CCC(=O)O)C(=O)N[C@@H](CS)C(=O)O | - | Full-length NS3 | IC50 | - | - | Hepatitis C virus | 0.6012 µM
O=C(Nc1ccc2cn[nH]c2c1)c1cc(NCc2ccccn2)c(F)cc1F | - | Nonstructural protein 5B | inhibition | 0.1 µg/mL | - | Hepatitis C virus | 28%
Brc1c(Br)c(Br)c2n[nH]nc2c1Br | - | Nonstructural protein 3 NTPase/helicase | IC50 | - | - | Hepatitis C virus | 60 µM
O=C(Nc1ccc2[nH]ncc2c1)c1cc(NCc2ccccn2)c(F)cc1F | - | Reverse transcriptase | inhibition | 0.01 µg/mL | - | Hepatitis B virus | 31%
Cc1cc(SC2=C(O)CC(CCc3ccc(O)cc3)(C3CCCC3)OC2=O)c(C(C)(C)C)cc1OCCO | - | Nonstructural protein 5B | IC50 | - | - | Hepatitis C virus | 1–10 µM
Cc1cc(Cl)ccc1S(=O)(=O)Nc1cc(-c2ccccc2)sc1C(=O)O | - | NS3 ATPase | IC50 | - | - | Hepatitis C virus | <5 µM
CC(C)c1cccc(CCC2(C3CCCC3)CC(=O)CC(=O)O2)c1 | - | Nonstructural protein 5B | IC50 | - | - | Hepatitis C virus | 1–10 µM
OC[C@H]1O[C@@H](n2cnc3cc(Cl)c(Cl)cc32)[C@H](O)[C@@H]1O | - | Nonstructural protein 3 NTPase/helicase | IC50 | - | - | Hepatitis C virus | 450 µM
CC1CCCC(C(=O)N(c2cc(-c3ccccc3)sc2C(=O)O)C(C)C)C1 | - | NS3 ATPase | IC50 | - | - | Hepatitis C virus | >20 µM
CSCC[C@H](NC(=O)[C@H](CCC(=O)O)NC(=O)[C@H](CC(=O)O)NC(C)=O)C(=O)N[C@@H](CCC(=O)O)C(=O)N[C@@H](CC1CCCCC1)C(=O)N[C@@H](CS)C(=O)O | - | Full-length NS3 | IC50 | - | - | Hepatitis C virus | 1.74 µM
O=C(Nc1ccc2[nH]ncc2c1)c1cc(N2CCNCC2)c(F)cc1F | - | Nonstructural protein 5B | IC50 | - | - | Hepatitis C virus | 1–10 µg/mL
O=C(O)CC(c1cccs1)N(Cc1ccc(-c2cccs2)cc1)C(=O)Nc1cc(Cl)nc(Cl)c1 | - | RNA-dependent RNA polymerase | IC50 | - | - | Hepatitis C virus | 5–20 µM
CCCC(NC(=O)[C@@H]1C2CCCC2CN1C(=O)[C@@H](NC(=O)[C@@H](NC(=O)c1cnccn1)[C@@H](C)CC)C(C)(C)C)C(=O)C(=O)NC1CC1 | - | Nonstructural protein 3 protease | Ki | - | - | Hepatitis C virus | 0.089 µM
O=C(O)[C@H](Cc1ccccc1)N(Cc1cccc(Br)c1)S(=O)(=O)c1ccc(Cl)cc1Cl | - | RNA-dependent RNA polymerase | IC50 | - | - | Hepatitis C virus | >20 µM
Cc1cc(SC2=C(O)CC(CCc3ccc(O)cc3)(C3CCCCC3)OC2=O)c(C(C)(C)C)cc1OS(=O)(=O)c1ccccc1 | - | Nonstructural protein 5B | IC50 | - | - | Hepatitis C virus | 10–50 µM
Cc1cc2c(cc1C(=O)N[C@@H](Cc1c[nH]c3ccc(OCC(=O)O)cc13)C(=O)O)nc(-c1ccoc1)n2C1CCCCC1 | - | NS5B polymerase | IC50 | - | - | Hepatitis C virus | 0.019 µM
O=C(Nc1cc(-c2ccccc2)sc1C(=O)O)c1ccc(F)cc1F | - | NS3 ATPase | IC50 | - | - | Hepatitis C virus | >20 µM
CC[C@H](C)[C@H](NC(=O)[C@@H](NC(C)=O)C(c1ccccc1)c1ccccc1)C(=O)N[C@@H](CC1CCCCC1)C(=O)N[C@@H](CS)C(=O)O | - | Full-length NS3 | IC50 | - | - | Hepatitis C virus | 3.507 µM

For reference, 3 entries again:

compound | read by | target | measure | tested at | strain or isolate | agent | result
O=C1CC(=O)OC(CCc2ccc(F)c(F)c2)(C2CCCC2)C1 | - | Nonstructural protein 5B | IC50 | - | - | Hepatitis C virus | 10–50 µM
COCCNc1nc(Nc2ccc3[nH]ncc3c2)nc(OC)n1 | - | NS5B polymerase | inhibition | 0.1 µg/mL | - | Hepatitis C virus | 46%
COc1cc(C)c(S(=O)(=O)N(Cc2ccc(-c3cc4ccccc4o3)cc2)[C@@H](Cc2ccccc2)C(=O)O)c(C)c1C | HPLC | Nonstructural protein 3 NTPase/helicase | IC50 | - | - | Hepatitis C virus | 5–20 µM